Measurements reported in PubChem BioAssay AID624099 (ICCB-Longwood, 2012)
Screen: 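Human genes that papillomavirus E2 requires to repress the HPV18 LCR promoter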 (primary screen). Cell system: human C33A cervical carcinoma cells (HPV-negative) stably expressing BPV1 E2 and an HPV18 LCR luciferase reporter. Reagents: siRNA pool against human genes, 40 nM. Timing: 72 h. Read-out: 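Per-well luciferase luminescence, z-scored on each plate against the plate mean and SD with control wells left out, then averaged across three replicate plates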. Reading the numbers: mean z-score and z-score: higher = stronger reporter signal, weaker E2 silencing. Rule for the call: 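Hit if mean z-score reaches 2 and two or more of three replicate z-scores also reach 2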.
The whole screen tested about 21,000 reagents; below is a part drawn at random. In the full data, 497 (2.4%) got an active call. 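Higher z means weaker E2 silencing; only reporter increases were scored, and knock-downs that hurt cell survival may mask genuine repressor factors.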 Entries without a mark were called inactive.

target | mean z-score | z-score, replicate A | z-score, replicate B | z-score, replicate C
LONRF2 (GeneID 164832) | 0.69 | 1.03 | 0.72 | 0.32
NAA38 (GeneID 84316) | -0.12 | -0.1 | 0.08 | -0.35
SMARCE1 (GeneID 6605) | 0.36 | 0.55 | 0.27 | 0.25
TMEM260 (GeneID 54916) | 0.18 | -0.1 | -0.07 | 0.72
ARHGEF40 (GeneID 55701) | 2.56 (active) | 2.81 | 2.66 | 2.22
SLCO6A1 (GeneID 133482) | 0.29 | 0.24 | -0.04 | 0.68
LUM (GeneID 4060) | 0.03 | -0.1 | 0.12 | 0.06
TMEM74B (GeneID 55321) | 0.14 | 0.21 | 0.13 | 0.07
MSANTD3 (GeneID 91283) | 0.94 | 1.05 | 1.1 | 0.66
LINC00928 (GeneID 283761) | -0.91 | -0.83 | -0.96 | -0.95
MRM2 (GeneID 29960) | 2.63 (active) | 1.61 | 2.42 | 3.86
HEYL (GeneID 26508) | -0.54 | -0.36 | -0.85 | -0.4
CCDC22 (GeneID 28952) | 0.19 | 0.14 | 0.32 | 0.1
CRIPAK (retired record) (GeneID 285464) | -0.43 | -0.28 | -0.46 | -0.56
FANCD2OS (GeneID 115795) | -1.26 | -0.9 | -1.47 | -1.41
ACTN2 (GeneID 88) | -0.46 | -0.79 | -0.24 | -0.36
HSFY2 (GeneID 159119) | -0.18 | -0.23 | -0.31 | -0.01
LOC730007 (retired record) (GeneID 730007) | -0.98 | -1.07 | -1.1 | -0.77
TLE4 (GeneID 7091) | 1.24 | 0.99 | 1.54 | 1.18
PRKAB2 (GeneID 5565) | -0.3 | -0.15 | -0.41 | -0.33
PFDN5 (GeneID 5204) | 0.62 | 0.7 | 0.71 | 0.44
NIBAN2 (GeneID 64855) | 0.99 | 1.17 | 0.85 | 0.96
HHATL (GeneID 57467) | -0.69 | -0.68 | -0.71 | -0.67
HAPLN2 (GeneID 60484) | -0.28 | -0.58 | -0.44 | 0.2
RPS10P29 (GeneID 388885) | -0.25 | -0.48 | -0.26 | -0.01
ZNF582 (GeneID 147948) | -0.42 | -0.24 | -0.55 | -0.47
C6orf52 (GeneID 347744) | -0.05 | 0 | -0.26 | 0.12
MUC21 (GeneID 394263) | 0.82 | 0.63 | 1.11 | 0.72
SLC35F2 (GeneID 54733) | 1.62 | 1.51 | 1.46 | 1.87

10 entries from above in another layout:
{"target":"LUM (GeneID 4060)","mean z-score":0.03,"z-score, replicate A":-0.1,"z-score, replicate B":0.12,"z-score, replicate C":0.06}
{"target":"TMEM74B (GeneID 55321)","mean z-score":0.14,"z-score, replicate A":0.21,"z-score, replicate B":0.13,"z-score, replicate C":0.07}
{"target":"MSANTD3 (GeneID 91283)","mean z-score":0.94,"z-score, replicate A":1.05,"z-score, replicate B":1.1,"z-score, replicate C":0.66}
{"target":"LINC00928 (GeneID 283761)","mean z-score":-0.91,"z-score, replicate A":-0.83,"z-score, replicate B":-0.96,"z-score, replicate C":-0.95}
{"target":"MRM2 (GeneID 29960)","mean z-score":"2.63 (active)","z-score, replicate A":1.61,"z-score, replicate B":2.42,"z-score, replicate C":3.86}
{"target":"HEYL (GeneID 26508)","mean z-score":-0.54,"z-score, replicate A":-0.36,"z-score, replicate B":-0.85,"z-score, replicate C":-0.4}
{"target":"CCDC22 (GeneID 28952)","mean z-score":0.19,"z-score, replicate A":0.14,"z-score, replicate B":0.32,"z-score, replicate C":0.1}
{"target":"CRIPAK (retired record) (GeneID 285464)","mean z-score":-0.43,"z-score, replicate A":-0.28,"z-score, replicate B":-0.46,"z-score, replicate C":-0.56}
{"target":"FANCD2OS (GeneID 115795)","mean z-score":-1.26,"z-score, replicate A":-0.9,"z-score, replicate B":-1.47,"z-score, replicate C":-1.41}
{"target":"ACTN2 (GeneID 88)","mean z-score":-0.46,"z-score, replicate A":-0.79,"z-score, replicate B":-0.24,"z-score, replicate C":-0.36}

The listing continues:
target | mean z-score | z-score, replicate A | z-score, replicate B | z-score, replicate C
S1PR4 (GeneID 8698) | 0.61 | 0.9 | 0.71 | 0.23
ENO3 (GeneID 2027) | 1 | 0.81 | 1.05 | 1.15
LINC02911 (GeneID 388276) | -1.23 | -1.17 | -1.3 | -1.24
OCM2 (GeneID 4951) | 0.53 | 0.67 | 0.42 | 0.51
LOC388388 (retired record) (GeneID 388388) | 0.89 | 1.08 | 0.55 | 1.04
PRMT9 (GeneID 90826) | -0.95 | -0.75 | -0.97 | -1.12
KCNJ2-AS1 (GeneID 400617) | -0.74 | -0.7 | -0.54 | -0.99
HTR6 (GeneID 3362) | 0.16 | 0.18 | 0.2 | 0.09
LOC402382 (retired record) (GeneID 402382) | 1.19 | 0.85 | 1.03 | 1.67
LOC387746 (retired record) (GeneID 387746) | 1.69 | 2.16 | 1.18 | 1.72
CYBRD1 (GeneID 79901) | -1.29 | -1.21 | -1.31 | -1.34
PCDHB7 (GeneID 56129) | 0.24 | 0.11 | 0.58 | 0.05
CTAG1B (GeneID 1485) | -0.88 | -0.77 | -1.38 | -0.48
PLK5 (GeneID 126520) | -2.12 | -2.22 | -2.16 | -1.97
KAT7 (GeneID 11143) | 0.26 | 0.22 | 0.52 | 0.05
HCP5 (GeneID 10866) | 0.32 | 0.53 | 0.08 | 0.34
SHMT2 (GeneID 6472) | -0.67 | -0.68 | -0.34 | -0.99
PCDHA2 (GeneID 56146) | 0.36 | 0.41 | 0.47 | 0.21
ZNF658 (GeneID 26149) | -0.6 | -0.78 | -0.48 | -0.53
MEIS3 (GeneID 56917) | 0.04 | -0.03 | 0.25 | -0.12
ATP1A4 (GeneID 480) | 0.54 | 0.41 | 0.54 | 0.66
MYH6 (GeneID 4624) | -1.45 | -1.15 | -1.46 | -1.72
RHOA (GeneID 387) | -1.85 | -1.89 | -1.88 | -1.79
GET1P1 (GeneID 256085) | -0.37 | -0.48 | -0.5 | -0.12
KDELR3 (GeneID 11015) | -0.6 | -0.56 | -0.6 | -0.65
GDF2 (GeneID 2658) | -0.33 | -0.48 | -0.46 | -0.04
CTU1 (GeneID 90353) | 0.44 | 0.39 | 0.24 | 0.68
ANXA3 (GeneID 306) | 0.44 | 0.88 | 0.07 | 0.37
